PubChem BioAssay AID624099 | ICCB-Longwood | 2012

Screen: 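Host factors E2 relies on to silence an HPV18 LCR reporter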 (primary screen)
System: human C33A cervical carcinoma cells (HPV-negative) stably expressing BPV1 E2 and an HPV18 LCR luciferase reporter
Reagent: siRNA pool against human genes, 40 nM
Timing: 72 h
Detection: 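Per-well luciferase luminescence, z-scored on each plate against the plate mean and SD with control wells left out, then averaged across three replicate plates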
Scale: mean z-score and z-score: higher = stronger reporter signal, weaker E2 silencing
Rule for the call: 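Mean z ≥ 2 together with z ≥ 2 in two or more of the three replicates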
This is an unselected part of about 21,000 deposited reagents. 497 of them (2.4%) count as active. 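Higher z means weaker E2 silencing; only reporter increases were scored, and knock-downs that hurt cell survival may mask genuine repressor factors.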 Entries without a mark were called inactive. Reagent sequences are not shown.

| gene knocked down | mean z-score | z-score, replicate A | z-score, replicate B | z-score, replicate C |
| --- | --- | --- | --- | --- |
| LOC388624 (retired record) | -0.97 | -0.17 | -1.38 | -1.36 |
| MAGI3 | 0.93 | 0.98 | 0.92 | 0.88 |
| TCHP (trichoplein keratin filament binding) | 0.59 | 0.49 | 0.8 | 0.48 |
| PDF (peptide deformylase, mitochondrial) | 0.32 | 0.45 | 0.42 | 0.08 |
| CHRFAM7A (CHRNA7 (exons 5-10) and FAM7A (exons A-E) fusion) | -0.5 | -0.55 | -0.39 | -0.57 |
| POLR1G (RNA polymerase I subunit G) | 0.39 | 0.61 | 0.43 | 0.14 |
| CABYR (calcium binding tyrosine phosphorylation regulated) | 0.1 | 0.13 | 0.04 | 0.14 |
| PPIAP55 (peptidylprolyl isomerase A pseudogene 55) | -0.34 | -0.39 | -0.23 | -0.4 |
| PRAMEF9 (PRAME family member 9) | 0.18 | 0.05 | 0.03 | 0.46 |
| SLC30A2 | 0.69 | 0.54 | 0.98 | 0.53 |
| FBXL7 (F-box and leucine rich repeat protein 7) | -0.65 | -0.62 | -0.55 | -0.78 |
| CASKIN2 (CASK interacting protein 2) | 0.28 | 0.15 | 0.52 | 0.18 |
| NCS1 (neuronal calcium sensor 1) | -0.33 | -0.43 | -0.25 | -0.31 |
| P3H4 (prolyl 3-hydroxylase family member 4 (inactive)) | 0.12 | 0.32 | 0.18 | -0.14 |
| GPR88 (G protein-coupled receptor 88) | 0.42 | 0.34 | 0.47 | 0.45 |
| TRAF1 (TNF receptor associated factor 1) | -0.35 | -0.13 | -0.53 | -0.39 |
| RPL7AP66 (ribosomal protein L7a pseudogene 66) | -3.14 | -3.31 | -3 | -3.11 |
| RD3 (RD3 regulator of GUCY2D) | -0.32 | -0.2 | -0.46 | -0.31 |
| TJP3 (tight junction protein 3) | 0.45 | 0.97 | 0.38 | 0 |
| DHRS2 (dehydrogenase/reductase 2) | 1.11 | 0.81 | 1.48 | 1.05 |
| ALPK1 (alpha kinase 1) | -0.23 | -0.65 | 0.05 | -0.1 |
| PGM5 (phosphoglucomutase 5) | -0.48 | -0.47 | -0.32 | -0.67 |
| IL1RAPL2 (interleukin 1 receptor accessory protein like 2) | 1.04 | 1.23 | 0.83 | 1.06 |
| TSHZ2 (teashirt zinc finger homeobox 2) | -0.72 | -0.64 | -0.7 | -0.82 |
| CARS2 (cysteinyl-tRNA synthetase 2, mitochondrial) | -0.86 | -1.09 | -1.13 | -0.35 |
| SLC16A2 | -0.16 | 0.08 | -0.27 | -0.28 |
| PRR16 (proline rich 16) | 2.43 (active) | 3.19 | 2.02 | 2.09 |
| SLC13A4 | 0.71 | 0.77 | 0.88 | 0.48 |
| PFKFB4 (6-phosphofructo-2-kinase/fructose-2,6-biphosphatase 4) | -0.35 | -0.31 | -0.66 | -0.09 |
| CXCL5 (C-X-C motif chemokine ligand 5) | -0.35 | -0.42 | -0.23 | -0.41 |
| PSMB10 (proteasome 20S subunit beta 10) | -0.15 | 0.2 | -0.17 | -0.49 |
| SFSWAP (splicing factor SWAP) | -0.85 | -0.84 | -1.02 | -0.7 |
| THUMPD2 (THUMP domain 2 tRNA and snRNA guanosine methyltransferase) | 1.4 | 1.17 | 1.32 | 1.72 |
| LCE3D (late cornified envelope 3D) | -0.87 | -0.51 | -0.94 | -1.15 |
| LOC401363 (retired record) | -0.2 | -0.15 | -0.26 | -0.21 |
| CTAGE10P (CTAGE family member 10, pseudogene) | -1.24 | -1.49 | -1.08 | -1.14 |
| SLIT3 (slit guidance ligand 3) | 1.11 | 1.29 | 0.91 | 1.12 |
| LOC400920 (retired record) | 0.7 | 0.58 | 0.53 | 0.98 |
| DNM3 (dynamin 3) | 0.58 | 0.55 | 0.25 | 0.93 |
| LOC401520 (retired record) | 0.17 | 0.28 | 0.12 | 0.11 |
| MORN4 (MORN repeat containing 4) | -0.19 | 0.03 | -0.32 | -0.26 |
| LOC389358 (retired record) | 1.04 | 1.1 | 1.11 | 0.91 |
| LOC285638 | 0.1 | 0.33 | -0.06 | 0.02 |
| CNOT7 (CCR4-NOT transcription complex subunit 7) | -0.23 | -0.08 | -0.35 | -0.25 |
| NUDCD1 (NudC domain containing 1) | -0.37 | -0.48 | -0.32 | -0.32 |
| LOC400796 (retired record) | -0.79 | -0.64 | -0.83 | -0.9 |
| LOC440683 (retired record) | -1.55 | -1.88 | -1.18 | -1.58 |
| INSRR (insulin receptor related receptor) | 0.3 | 0.42 | 0.31 | 0.16 |
| PRSS1 (serine protease 1) | 0.37 | 0.46 | 0.3 | 0.34 |
| INO80D (INO80 complex subunit D) | 0.98 | 0.68 | 1 | 1.25 |
| KCNB2 (potassium voltage-gated channel subfamily B member 2) | 0.45 | 0.85 | 0.03 | 0.46 |
| NAT1 (N-acetyltransferase 1) | 0.6 | 0.33 | 0.8 | 0.67 |
| C6 (complement C6) | 1.41 | 1.57 | 1.41 | 1.27 |
| RAB7B (RAB7B, member RAS oncogene family) | 1.02 | 0.95 | 0.99 | 1.12 |
| SSTR5 (somatostatin receptor 5) | -1.22 | -0.89 | -1.33 | -1.43 |
| FOXD1 (forkhead box D1) | 0.58 | 0.87 | 0.33 | 0.55 |
| GABARAP (GABA type A receptor-associated protein) | 0.55 | 0.7 | 0.59 | 0.37 |

Looked up above.
LOC400796 (retired record), z-score, replicate C → -0.9
TSHZ2 (teashirt zinc finger homeobox 2), z-score, replicate B: -0.7
LOC401520 (retired record), z-score, replicate A: 0.28
Result of IL1RAPL2 (interleukin 1 receptor accessory protein like 2) in “z-score, replicate A”: 1.23
Value of SLC13A4 under “z-score, replicate A”: 0.77
Value of CABYR (calcium binding tyrosine phosphorylation regulated) in “z-score, replicate A”: 0.13
